Reference: patent US7642277B2, “Non-nucleoside reverse transcriptase inhibitors” (Boehringer Ingelheim International GmbH, priority 2002, dated 2010)
The structures given here were assigned with low confidence; some may be wrong.

Assays:
[1] = target: HIV-1 RT resistant mutant K103N/Y181C (Human immunodeficiency virus type 1 group M subtype B, UniProt P04585, K690N/Y768C); assay: Reverse transcriptase (RT) enzymatic assay (IC50), PicoGreen fluorescence, resistant mutant; type: biochemical; conditions: read-out: IC50 K103N/Y181C
[2] = target: HIV-1 RT enzyme (wild type) (Human immunodeficiency virus type 1 group M subtype B, UniProt P04585); assay: Reverse transcriptase (RT) enzymatic assay (IC50), PicoGreen fluorescence, wild type; type: biochemical; conditions: read-out: IC50 WT
HIV-1 (wild type) = assay: P24 cellular assay (EC50), data identified with * in Table 9, wild type; type: cell-based; conditions: read-out: EC50 WT
[3] = system: HIV-1 resistant mutant K103N/Y181C; assay: P24 cellular assay (EC50), data identified with * in Table 9, resistant mutant; type: cell-based; conditions: read-out: EC50 K103N/Y181C

SMILES	IC50 [1] [nM]	IC50 [2] [nM]	EC50 (HIV-1 (wild type)) [nM]	EC50 [3] [nM]
Cc1cc(S(N)(=O)=O)ccc1NC(=O)CSc1nnnn1-c1cc(C(F)(F)F)cc(C)c1Cl	> 100	50 to 100	–	–
O=C(CSc1nnnn1-c1c(Cl)cccc1Cl)Nc1ccccc1[N+](=O)[O-]	> 100	< 50	–	–
COc1ccc(-n2nnnc2SCC(=O)Nc2ccccc2[N+](=O)[O-])cc1	–	> 100	–	–
O=C(CCc1occc1-c1cccc2ccccc12)Nc1ccccc1[N+](=O)[O-]	–	> 100	–	–
Cc1cc(C)c(-n2nnnc2SCC(=O)c2cccs2)c(C)c1	–	> 100	–	–
O=C(CSc1nnnn1-c1cccc2ccccc12)Nc1cccc(Cl)c1Cl	–	50 to 100	< 50	> 100
CS(=O)(=O)c1ccccc1NC(=O)CSc1nnnn1-c1cccc2ccccc12	–	> 100	–	–
Cc1cc(C)c(-n2nnnc2SCC(=O)c2cc3ccccc3o2)c(C)c1	–	> 100	–	–
